Test results published in PubChem BioAssay AID588499 (NMMLSC, 2011).
The list shows a part of the results, in another mix than the full data. Some structures show a salt or complex split into parts, the way the source records it. Calls of active or inactive are those of the source. No stated cut-off is given here; in the data, active means inhibition above about 30%; inconclusive means no clear call, values can overlap the other calls; inactive means below that.

Each compound was assayed on Botulinum neurotoxin type A light chain protease (Clostridium botulinum A str. ATCC 3502) (assay: blockers of BoNT/A LC substrate cleavage – biochemical, flow cytometry, MLPCN library, primary screen (AID 588499; further: plate controls were buffer without enzyme for full effect and enzyme alone for no effect)). Details: multiplex microsphere protease substrate cleavage, at 10 µM, active compounds read high.

Q: `CP(=O)(Nc1ccc(SC(F)(F)F)cc1)Oc1ccc(F)cc1` (centres undefined) was tested. Which inhibition did it give?
A: Its inhibition is inactive: 0.3%.

Q: For `CCOP(C)(=S)SCC(=O)NC(C)(CC)C(=O)O` (centres undefined), which inhibition is on record?
A: Its inhibition is inactive: 0.1%.

Q: Which inhibition does the source give for `CP(=O)(Nc1ccc2c(c1)OCCO2)Oc1ccccc1` (centres undefined) here?
A: The inhibition was inactive: -0.7%.

Q: `O=[N+]([O-])c1cc([N+](=O)[O-])c(C(F)(F)F)c([N+](=O)[O-])c1O` was tested. Which inhibition did it give?
A: Its inhibition is inactive: -0.7%.

Q: Which inhibition does the source give for `Cc1ccccc1NP(C)(=O)Nc1ccccc1C` here?
A: Its inhibition is inactive: 0.8%.

Q: `COc1ccc(OP(C)(=O)Nc2cccc(Br)c2)cc1` (centres undefined) was tested. Which inhibition did it give?
A: Its inhibition is inactive: -2.2%.

Q: For `COc1ccc(NP(C)(=O)Oc2ccccc2OC)cc1` (centres undefined), which inhibition is on record?
A: The inhibition was inactive: -0.9%.

Q: Which inhibition does the source give for `CN(C)CCOC(=O)C(O)(c1ccccc1)C1CCCCC1` (centres undefined) here?
A: Its inhibition is inactive: -0.1%.

Q: For `Cc1cc(-c2cccc3ccccc23)c(C)cn1.O=[N+]([O-])c1cc([N+](=O)[O-])c(O)c([N+](=O)[O-])c1`, which inhibition is on record?
A: The inhibition was inactive: -0.7%.

Q: How did the inhibition turn out when `O=[N+]([O-])c1cc([N+](=O)[O-])c(NCC2CCS(=O)(=O)C2)c([N+](=O)[O-])c1` (centres undefined) was run?
A: The inhibition was inactive: 1.7%.

Q: Which inhibition does the source give for `O=[N+]([O-])c1ccc(OP2(=O)COCCO2)cc1` (centres undefined) here?
A: Its inhibition is inactive: 0.5%.

Q: With `Cc1c(C(c2ccc3c(c2)OCO3)c2c(C)n(C)n(-c3ccccc3)c2=O)c(=O)n(-c2ccccc2)n1C.O=[N+]([O-])c1cc([N+](=O)[O-])c(O)c([N+](=O)[O-])c1` as the compound, how does the inhibition read?
A: The inhibition was inactive: -1.4%.

Q: With `CCN(CC)CCCNc1ccccc1[N+](=O)[O-].O=[N+]([O-])c1cc([N+](=O)[O-])c(O)c([N+](=O)[O-])c1` as the compound, how does the inhibition read?
A: Its inhibition is inactive: 0.4%.

Q: For `COc1ccc(OP(C)(=O)Nc2ccc(SC(F)(F)F)cc2)cc1` (centres undefined), which inhibition is on record?
A: The inhibition was inactive: -0.6%.

Q: How did the inhibition turn out when `CCOC(=O)c1ccc(NP(C)(=O)Oc2ccc(F)cc2)cc1` (centres undefined) was run?
A: Its inhibition is inactive: -0.1%.

Q: For `CCN(CC)CCCOC(=O)C(O)(c1ccccc1)C1CCCCC1` (centres undefined), which inhibition is on record?
A: The inhibition was inactive: 0.9%.

Q: `Cc1c([N+](=O)[O-])cc([N+](=O)[O-])c(Br)c1[N+](=O)[O-]` was tested. Which inhibition did it give?
A: Its inhibition is inactive: 0.1%.

Q: With `O=[N+]([O-])c1cc([N+](=O)[O-])c(OC2CCCCC2O)c([N+](=O)[O-])c1` (centres undefined) as the compound, how does the inhibition read?
A: Its inhibition is inactive: -3.1%.

Q: With `CCCCCOc1ccc(NP(C)(=O)Oc2ccc(Cl)cc2Cl)cc1` (centres undefined) as the compound, how does the inhibition read?
A: Its inhibition is inactive: 0%.

Q: For `CP(=O)(Nc1ccccc1)Oc1ccc(F)cc1` (centres undefined), which inhibition is on record?
A: Its inhibition is inactive: -1.2%.

Q: How did the inhibition turn out when `O=[N+]([O-])c1cc([N+](=O)[O-])c(Nc2ccc(Cl)cc2)c([N+](=O)[O-])c1` was run?
A: Its inhibition is inactive: -0.5%.

Q: For `CC(C)c1ccc(OP(C)(=O)Nc2ccc(SC(F)(F)F)cc2)cc1` (centres undefined), which inhibition is on record?
A: Its inhibition is inactive: 0.2%.

Q: For `CP(=O)(Nc1ccccc1F)Oc1ccccc1` (centres undefined), which inhibition is on record?
A: Its inhibition is inactive: 0.5%.

Q: How did the inhibition turn out when `O=C(OCCN1CCN(CCOCc2ccccc2)CC1)C(O)(c1ccccc1)c1ccccc1` was run?
A: The inhibition was inactive: 0.5%.

Q: Which inhibition does the source give for `O=C(OC1CN2CCC1CC2)c1ccc([N+](=O)[O-])cc1` (centres undefined) here?
A: The inhibition was inactive: -0.5%.

Q: For `COc1ccc2c(c1O)-c1c(O)c(OC)cc3c1[C@H](C2)[N+](C)(C)CC3.O=[N+]([O-])c1cc([N+](=O)[O-])c([O-])c([N+](=O)[O-])c1[O-]`, which inhibition is on record?
A: Its inhibition is inactive: -0.7%.

Q: For `COc1ccccc1OP(C)(=O)Nc1ccc(Br)cc1` (centres undefined), which inhibition is on record?
A: Its inhibition is inactive: -0.1%.

Q: `CN(C)CCOC(=O)C(O)(c1ccccc1)C1CCCC1` (centres undefined) was tested. Which inhibition did it give?
A: Its inhibition is inactive: -0.2%.

Q: `COc1ccc(OP(C)(=O)Nc2ccccn2)cc1` (centres undefined) was tested. Which inhibition did it give?
A: Its inhibition is inactive: 0.3%.

Q: For `O=[N+]([O-])c1cc([N+](=O)[O-])c(Nc2ccccn2)c([N+](=O)[O-])c1`, which inhibition is on record?
A: Its inhibition is inactive: 0.4%.

Q: `Cc1c(NP(C)(=O)Oc2ccc(C(C)C)cc2)c(=O)n(-c2ccccc2)n1C` (centres undefined) was tested. Which inhibition did it give?
A: The inhibition was inactive: 3.7%.

Q: `CCc1ccc(OP(C)(=O)O)cc1` was tested. Which inhibition did it give?
A: Its inhibition is inactive: 0.2%.

Q: With `CP(=O)(Nc1ccccn1)Oc1ccccc1` (centres undefined) as the compound, how does the inhibition read?
A: Its inhibition is inactive: 0.5%.

Q: How did the inhibition turn out when `COc1ccccc1OP(C)(=O)Nc1ccc(C)cc1C` (centres undefined) was run?
A: The inhibition was inactive: -0.5%.

Q: For `O=C1C(O)=C([N+](=O)[O-])C(=O)C(O)=C1[N+](=O)[O-]`, which inhibition is on record?
A: The inhibition was inactive: -0.1%.

Q: For `Cc1cc(C)cc(OP(C)(=O)Nc2cccc(C(F)(F)F)c2)c1` (centres undefined), which inhibition is on record?
A: The inhibition was inactive: -0.5%.

Q: For `COc1ccc(OP(C)(=O)Nc2ccccc2Br)cc1` (centres undefined), which inhibition is on record?
A: The inhibition was inactive: 0.6%.

Q: For `COc1ccccc1OP(C)(=O)Nc1ccc(C)c(C)c1` (centres undefined), which inhibition is on record?
A: The inhibition was inactive: -0.5%.

Q: With `CP(=O)(OCCOc1ccccc1)OCCOc1ccccc1` as the compound, how does the inhibition read?
A: Its inhibition is inactive: -0.8%.

Q: Which inhibition does the source give for `CP(=O)(Nc1ccc(Cl)cc1Cl)Oc1ccccc1` (centres undefined) here?
A: Its inhibition is inactive: -1.3%.

Q: Which inhibition does the source give for `CCCCCCCCCCCCCCCC1C[N+](C)(C)CCOP(C)(=O)O1` (centres undefined) here?
A: Its inhibition is inactive: -0.6%.

Q: How did the inhibition turn out when `CP(=O)(OC12CC3CC(CC(C3)C1)C2)OC12CC3CC(CC(C3)C1)C2` was run?
A: The inhibition was inactive: -2.5%.

Q: How did the inhibition turn out when `CCOC(=O)c1ccc(NP(C)(=O)Oc2ccc(Cl)cc2)cc1` (centres undefined) was run?
A: The inhibition was inactive: -0.4%.

Q: `CCN(CC)CC(O)COC(=O)C(O)(c1ccccc1)C1CCCCC1` (centres undefined) was tested. Which inhibition did it give?
A: Its inhibition is inactive: 1%.

Q: How did the inhibition turn out when `COc1ccc(OP(C)(=O)Nc2ccc(Br)cc2)cc1` (centres undefined) was run?
A: The inhibition was inactive: 0.5%.

Q: How did the inhibition turn out when `CP(=O)(Oc1ccccc1)N1CCOC1=O` (centres undefined) was run?
A: Its inhibition is inactive: 0.4%.

Q: `CCc1ccc(OP(C)(=O)Nc2cccnc2)cc1` (centres undefined) was tested. Which inhibition did it give?
A: Its inhibition is inactive: 0.1%.

Q: For `COc1ccccc1OP(C)(=O)Nc1c(C)n(C)n(-c2ccccc2)c1=O` (centres undefined), which inhibition is on record?
A: The inhibition was inactive: -0.4%.

Q: For `O=C(OCCCN1CCCC1)C(O)(c1ccccc1)C1CCCCC1` (centres undefined), which inhibition is on record?
A: The inhibition was inactive: 1.9%.

Q: For `CP(=O)(Nc1ccc(Cl)cc1)Oc1ccc(F)cc1` (centres undefined), which inhibition is on record?
A: Its inhibition is inactive: -1.8%.

Q: Which inhibition does the source give for `CC(C)(C)c1ccc(OP(C)(=O)O)cc1` here?
A: The inhibition was inactive: -0.2%.

Q: With `COc1ccccc1OP(C)(=O)Nc1ccccc1Br` (centres undefined) as the compound, how does the inhibition read?
A: The inhibition was inactive: 0.9%.

Q: How did the inhibition turn out when `CN(C)C(=O)c1c([N+](=O)[O-])cc([N+](=O)[O-])cc1[N+](=O)[O-]` was run?
A: The inhibition was inactive: -1%.

Q: With `Cc1ccc(Nc2c([N+](=O)[O-])cc([N+](=O)[O-])cc2[N+](=O)[O-])cc1` as the compound, how does the inhibition read?
A: The inhibition was inactive: -0.3%.

Q: With `Cc1cccc(C)c1OP(C)(=O)Nc1ccc(SC(F)(F)F)cc1` (centres undefined) as the compound, how does the inhibition read?
A: Its inhibition is inactive: -0.1%.

Q: Which inhibition does the source give for `CP(=O)(Nc1ccc(SC(F)(F)F)cc1)Oc1ccc(Cl)cc1` (centres undefined) here?
A: The inhibition was inactive: -0.9%.

Q: With `CP(=O)(Oc1ccccc1)OC(c1ccccc1)C(F)(F)F` (centres undefined) as the compound, how does the inhibition read?
A: Its inhibition is inactive: -0.3%.

Q: For `CCc1ccc(OP(C)(=O)N2CCN(c3ccc([N+](=O)[O-])cc3)CC2)cc1` (centres undefined), which inhibition is on record?
A: The inhibition was inactive: 1.6%.

Q: `CP(=O)(NC(=O)Nc1ccccc1)Oc1ccccc1` (centres undefined) was tested. Which inhibition did it give?
A: Its inhibition is inactive: -0.6%.
